Compound potency records, mixed from different reports. Data source: NIAID ChemDB in PubChem.

Shared fields: whole-cell or culture tests; organism: Cowpox virus; read-out: EC50

Neighbouring rows are from separate reports.

structure | strain | cells | result
Cc1cn([C@@H]2O[C@H](CO)[C@@H](O)[C@@H]2O)c(=O)[nH]c1=O | Brighton | C1271 | 1 µM
Nc1ccn([C@@H]2C=C(CO)[C@@H](O)[C@H]2O)c(=O)n1 | CPX | VERO | 0.05 µg/mL
Nc1ccn(C[C@@H](CO)OCP(=O)(O)O)c(=O)n1 | Brighton | C1271 | 1.1 µM
Cc1cc(C)nc(NS(=O)(=O)c2ccc(N=C3C(=O)Nc4ccc(F)cc43)cc2)n1 | - | HFF | >60 µM
Cn1c(O)c(N=NC(N)=S)c2ccccc21 | - | VERO | 49.2 µg/mL
O=c1[nH]c(=O)n([C@H]2C[C@H](O)[C@@H](CO)O2)cc1I | Brighton | VERO | 14 µM
CCCCCCCCCCCCCCCCCCOCCOP(=O)(O)COCCn1cnc2c(=O)[nH]c(N)nc21 | Brighton | HFF | 0.029 µM
CN[C@H]1C[C@@H](n2cnc3c(N)ncnc32)[C@H](O)[C@@H]1O | - | HFF | >100 µg/mL
Nc1ccn(C[C@@H](CO)OCP(=O)(O)O)c(=O)n1 | Brighton | C1271 | 1 µM
Cc1cc(C)nc(NS(=O)(=O)c2ccc(N=C3C(=O)Nc4ccc(Cl)cc43)cc2)n1 | - | HFF | 200 µM
N=c1c2ncn([C@@H]3O[C@H](CO)[C@@H](O)[C@H]3O)c2ncn1OCc1cc(F)cc(F)c1 | - | LLC-MK2 | >100 µg/mL
Nc1nc2c(ncn2[C@@H]2O[C@H](CO)[C@@H](O)[C@@H]2O)c(=O)[nH]1 | Brighton | C1271 | 1.2 µM
CC(C)(C)C(=O)OCOP(=O)(COCCn1cnc2c(N)ncnc21)OCOC(=O)C(C)(C)C | - | LLC-MK2 | 86 µg/mL
Nc1ncnc2c1nc(Br)n2[C@@H]1O[C@H](CO)[C@@H](O)[C@H]1O | Brighton | C1271 | 7.6 µM
Nc1ccn(C[C@H]2COP(=O)(O)CO2)c(=O)n1 | - | LLC-MK2 | >100 µg/mL
Cc1cc(C)nc(NS(=O)(=O)c2ccc(N=C3C(=O)N(CN4CCNCC4)c4ccccc43)cc2)n1 | - | HFF | >60 µM
NC(=O)c1csc([C@@H]2O[C@H](CO)[C@@H](O)[C@H]2O)n1 | - | VERO | 34.6 µg/mL
O=c1[nH]cnc2c1ncn2[C@@H]1C=C(CO)[C@@H](O)[C@H]1O | CPX | VERO | >100 µg/mL

Again, the opening 2 rows:

| structure | strain | cells | result |
|---|---|---|---|
| Cc1cn([C@@H]2O[C@H](CO)[C@@H](O)[C@@H]2O)c(=O)[nH]c1=O | Brighton | C1271 | 1 µM |
| Nc1ccn([C@@H]2C=C(CO)[C@@H](O)[C@H]2O)c(=O)n1 | CPX | VERO | 0.05 µg/mL |

ECn: concentration that inhibits the pathogen or its effect by n%. Blank or dashed fields: not listed here.